Like-named read-outs stand apart in the source and are kept apart here.
Assays:
VACV-WR-GFP virus = experiment: Viral spread assay (VACV-WR-GFP, HeLa cells, 24 h, GFP imaging); format: cell-based, vaccinia virus
VACV WR A4-YFP = experiment: Confocal imaging of virus-loaded actin tails (BSC40 cells); format: cell-based, vaccinia virus; conditions: 10 μM, 24 h, MOI 1
VACV WR-Luc virus = conditions: 2 h at 37°C

## O=C1CN(C(=O)c2nccs2)C(c2ccccc2)c2cc(Cl)ccc2N1 (centres unmarked)
VACV-WR-GFP virus
  IC50: 700 nM
  IC90: 1700 nM
VACV WR A4-YFP
  virus-loaded actin tails per cell: significant decrease in virus-loaded tails
VACV WR-Luc virus; 10 μM
  viral entry (luciferase RLU): reduced viral entry
VACV WR-Luc virus; lower concentrations tested (2.5 and 5 μM)
  viral entry (luciferase RLU): did not markedly decrease viral entry
